{"source": "paper PMC8406809", "about": "(Antimicrobial Agents and Chemotherapy, 2021)", "system": "original-SARS2", "type": "cell-based, SARS-CoV-2", "data": [{"substance": "interferon alpha 2b", "values": [{"measurement": "antiviral effect (virus-positive cells normalized to nontreated controls)", "value": "concentration-dependent antiviral effect"}]}]}
